Experiment [1] addresses T1, Recombinant human furin (human, UniProt P09958 108-714). The experiment in a line: enzyme inhibition; peptide on nanobeads.
The target of experiment [2] is T1, Recombinant human furin. The experiment in a line: enzyme inhibition; peptide alone.

As a reminder, the Ki is a dissociation constant, usually derived from enzyme kinetics or from competition with a known ligand. For GGGTPQRARRRKKRW [GGG-TPQRARRRKKRW], the Ki in experiment [1] was found to be 4280 nM; in experiment [2] it was 67 nM.
Consider GAGAGATPQRARRRKKRW [GAGAGA-TPQRARRRKKRW], for which, in experiment [2], the Ki is 127 nM.
Consider GGGGGGTPQRARRRKKRW [GGGGGG-TPQRARRRKKRW], for which the Ki was found to be 9090 nM in experiment [1] and 88 nM in experiment [2].
